Measured values from several laboratories, pooled; numbers as filed in NIAID ChemDB.

Common to all: growth or infection tests; species: Aspergillus flavus; read-out: zone

Zones are inhibition diameters on agar. Rows are shuffled and stem from different studies.

{"structure": "Clc1ccc(COC(Cn2ccnc2)c2ccc(Cl)cc2Cl)c(Cl)c1", "strain": "MTCC 277", "dose": "100 µg/mL", "result": "17 mm"}
{"structure": "Clc1ccc(C2=NN(c3ccccc3)C(c3cn(-c4ccccc4)nc3-c3ccc(Br)cc3)C2)c(Cl)c1", "dose": "500 µg/mL", "result": "1 mm"}
{"structure": "N#Cc1ccc(C(=O)OCc2csc(N)n2)cn1", "strain": "NCIM No. 524", "dose": "25 µg/mL", "result": "<10 mm"}
{"structure": "O=C(CCc1c[nH]c2ccc(Cl)cc12)NCCCc1c[nH]c2ccc(OC(F)(F)F)cc12", "strain": "NCIM 524", "dose": "25 µg/mL", "result": "<10 mm"}
{"structure": "O=C1NC(=O)C(Cc2nc3ccccc3c(=O)o2)S1", "dose": "20000 µg/mL", "result": "9 mm"}
{"structure": "CSc1ccc(C2=NN(c3ccccc3)C(c3cn(-c4ccccc4)nc3-c3ccccc3)C2)cc1", "dose": "500 µg/mL", "result": "0 mm"}
{"structure": "Fc1ccc2c(c1)Sc1cccnc1N2CCCCN1c2ccc(F)cc2Sc2cccnc21", "strain": "MTCC 277", "dose": "100 µg/mL", "result": "12 mm"}
{"structure": "Nc1nc(COC(=O)c2ccccc2[N+](=O)[O-])cs1", "strain": "NCIM No. 524", "dose": "25 µg/mL", "result": "<10 mm"}
{"structure": "Cc1nc2ccccc2n(CC(=O)NN2C(=O)CSC2c2ccccc2F)c1=O", "dose": "50 µg/mL", "result": "8 mm"}
{"structure": "O=C1NC(=O)C(Cc2nc3ccccc3c3nc(=S)[nH]n23)S1", "dose": "20000 µg/mL", "result": "11 mm"}
{"structure": "C(=C\\CN1c2ccccc2Sc2cccnc21)/CN1c2ccccc2Sc2cccnc21", "strain": "MTCC 277", "dose": "100 µg/mL", "result": "12 mm"}
{"structure": "COc1ccc(C2SCC(=O)N2NC(=O)Cn2c(=O)c(C)nc3ccccc32)cc1OC", "dose": "100 µg/mL", "result": "13 mm"}
{"structure": "Nc1nc(COC(=O)c2ccc(Br)cc2)cs1", "strain": "NCIM No. 524", "dose": "25 µg/mL", "result": "<10 mm"}
{"structure": "CC(=O)Nc1ccc(Br)cc1Sc1ncccc1[N+](=O)[O-]", "strain": "MTCC 277", "dose": "100 µg/mL", "result": "12 mm"}
{"structure": "Cc1nc2ccccc2n(CC(=O)NN2C(=O)CSC2c2ccccc2Cl)c1=O", "dose": "50 µg/mL", "result": "8 mm"}
{"structure": "Cc1c(CNC(=O)CCc2cn(C)c3ccc(Cl)cc23)c2cc(OC(F)(F)F)ccc2n1C", "strain": "NCIM 524", "dose": "25 µg/mL", "result": "<10 mm"}
{"structure": "Cc1nc2ccccc2n(CC(=O)NN2C(=O)CSC2c2ccc([N+](=O)[O-])cc2)c1=O", "dose": "100 µg/mL", "result": "20 mm"}
{"structure": "Nc1nc(COC(=O)c2ccc(Cl)cc2)cs1", "strain": "NCIM No. 524", "dose": "25 µg/mL", "result": "<10 mm"}
{"structure": "C[C@H]1[C@H](O)[C@@H](C)/C=C/C=C/C=C/C=C/C=C/C=C/C=C/[C@H](O[C@@H]2O[C@H](C)[C@@H](O)[C@H](N)[C@@H]2O)C[C@@H]2O[C@](O)(C[C@@H](O)C[C@@H](O)CC[C@H](O)[C@@H](O)C[C@@H](O)CC(=O)O[C@H]1C)C[C@H](O)[C@H]2C(=O)O", "dose": "20000 µg/mL", "result": "16 mm"}
{"structure": "Cc1ccc(O)c(O)c1O", "dose": "50 µg/mL", "result": "10 mm"}
{"structure": "Brc1ccc2c(c1)Sc1cccnc1N2C/C=C/CN1c2ccc(Br)cc2Sc2cccnc21", "strain": "MTCC 277", "dose": "100 µg/mL", "result": "11 mm"}
{"structure": "O=C(CCc1c[nH]c2ccc(Cl)cc12)NCc1c[nH]c2ccc(Cl)cc12", "strain": "NCIM 524", "dose": "25 µg/mL", "result": "<10 mm"}
{"structure": "Nc1nc(COC(=O)c2cccc([N+](=O)[O-])c2Cl)cs1", "strain": "NCIM No. 524", "dose": "25 µg/mL", "result": "<10 mm"}
{"structure": "Cn1cc(CCC(=O)NCCCc2c[nH]c3ccc(Cl)cc23)c2cc(Cl)ccc21", "strain": "NCIM 524", "dose": "25 µg/mL", "result": "<10 mm"}
{"structure": "OC(Cn1cncn1)(Cn1cncn1)c1ccc(F)cc1F", "dose": "30 µg/mL", "result": "99 mm"}
{"structure": "CC(=Nc1cccc2cccc(N=C(C)c3c(O)ccc4c(C)cc(=O)oc34)c12)c1c(O)ccc2c(C)cc(=O)oc12", "strain": "MTCC 1883", "dose": "200 µg/mL", "result": "16 mm"}
{"structure": "CSc1ccc(C2=NN(c3ccccc3)C(c3cn(-c4ccccc4)nc3-c3ccc(Br)cc3)C2)cc1", "dose": "500 µg/mL", "result": "3 mm"}
{"structure": "COc1ccc(C2SCC(=O)N2NC(=O)Cn2c(=O)c(C)nc3ccccc32)cc1", "dose": "50 µg/mL", "result": "9 mm"}

A second listing of 2 rows from above:

{"structure": "COc1ccc(C2SCC(=O)N2NC(=O)Cn2c(=O)c(C)nc3ccccc32)cc1", "dose": "50 µg/mL", "result": "9 mm"}
{"structure": "Brc1ccc2c(c1)Sc1cccnc1N2C/C=C/CN1c2ccc(Br)cc2Sc2cccnc21", "strain": "MTCC 277", "dose": "100 µg/mL", "result": "11 mm"}